Experimental data taken from the supplement of paper PMC9931576.
Human monoclonal antibodies against the spike receptor-binding domain (heavy:light variable regions). IC50 against pseudoviruses bearing the spike of naturally observed variants; lower = stronger; >10 µg/ml means not reached at the top dose. No active / inactive call. The stated detection limit is 0.0005 µg/ml; values near or below 0.001 µg/ml lie at the floor of the assay.

B1: XGv-264 (protein)
chain 1: QITLKESGPTLVKPTQTLTLTCAFSGFSLNTGGAGVGWIRQPPGKALEWLALIYWDGDKRYNPSLKSRLAIIMDTSKNRVVLTMTNMDPVDTATYYCAHHKIEYIFDYWGQGTLVAVSS
chain 2: QSALTQPASVSGSPGQSITVSCTGTSSDLGNFQYVSWYQHHPGKAPKLLIYEVSHRPSGVSNRFSGSKSGNTASLTISGLQAEDEADYYCCSYTTTTIPVAFGGGTRLTVL
B2: XGv-265 (protein)
chain 1: QITLKESGPTLVKPTQTLTLTCNFSGFSLNTYGVGVGWIRQPPGKALEWLALIYWDGDERYGPFFKNKVTIAKDTSKNQVVLTMTNMDPVDTATYYCARHLIPTIFDYWGQGTLVTVSS
chain 2: QSALTQPASVSGSPGQSITISCTGTSSDVGGSNYVSWYQHHPDRAPKLLIYEVTNRPSGVSNRFSGSKSANTASLTISGLQAEDEADYYCSSYTTTSTHILFGGGTKLTV
B3: XGv-266 (protein)
chain 1: QITLKESGPTLVRPTQTLTLTCTFSGLSLSAPAEGVGWIRQPPGKALEWLALIYWEGDQRYSPSLKSRLTITKDTSKKQVVLTMTNMDPVDTATYYCARHSVATIFDFWGQGTLVTVSS
chain 2: QSALTQPASVSGSPGQSITISCTGTSSDVGCCNYVSWYQHHPGKAPKLMIYEVTNRPSGISDRFSGSKSGNTASLTISGLQAEDEAAYYCSSYTTSTARVVFGGGTKLTVL
B4: XGv-271 (protein)
chain 1: QVQLVQSGAEVKKPGSSVKVSCKASGGTFSSHPISWVRQAPGQGLEWMGRVIPIIGVTDYAQKFQGRVTFSADKSTSTAYMELSSLISEDTAVYYCARDRGYSGSGSSYYFDNWGQGSLVTVSS
chain 2: QSVLAQPPSVSGAPGQRVTISCTGSNSNIGAGYDVHWYQQLPGTAPKLLIYANNNRPSGVPDRFSGSKSDTSASLAITGLLAEDEAVYYCQSYDSGLINSGVFGGGTKLTVL
B5: XGv-285 (protein)
chain 1: QVQLVQSGAEVKKPGASMKVSCKASGYTFISYYMHWVRQAPGQELEWMGIINPSGGSTSYAQKFQGRVTMTRDTSTSTVYMELRSLRSEDTAVYYCARAEGSSWLGWFDPWGQGTLVTVSS
chain 2: QSVLTQPPSASGTPGQRVTISCSGSSSNIGSNLVYWYQHLPGTAPKLLIYKNTQRPSGVPDRFSGSKSGTSASLAISGLRSDDEGDYYCAAWDDGLSGSGWVFGGGTKVT
B6: XGv-286 (protein)
chain 1: QVQLVQSGAEVKKPGASVKVSCKASGYTFSSYYIHWVRQAPGQGPEWMAIINPGDGGASYAQKFQGRVTLTRDTSTSTLYMELSSLRSEDTAVYYCARAEGSSWLGWFDPWGQGTLVTVSS
chain 2: QSVLTQPPSASGTPGQRVTISCSGSSSNIGSNYVYWYQQLPGTAPKLLIYRNNQRPSGVPDRFSGSRSGTSASLAISGLRSEDEADYYCAAWDDGLSGSGWVFGGGTKLT

Each binder was assayed against SARS-CoV-2 Omicron BA.1 spike pseudovirus (assay: pseudovirus neutralization IC50; higher = weaker neutralization).
Experimental: (§1)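 Single-round VSV luciferase pseudovirus mixed with antibody dilutions for 1 h and put on Huh-7 cells for about a day; IC50 from the dose curve.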

Binder | pseudovirus neutralization IC50
B1 | 0.00164 µg/mL
B2 | > 10 µg/mL
B3 | > 10 µg/mL
B4 | > 10 µg/mL
B5 | > 10 µg/mL
B6 | 0.00234 µg/mL

Each binder was assayed against SARS-CoV-2 Omicron BA.2 spike pseudovirus in the same assay as above.
Experimental: as §1

Binder | pseudovirus neutralization IC50
B1 | 0.0039 µg/mL
B2 | 0.0449 µg/mL
B3 | 0.614 µg/mL
B4 | > 10 µg/mL
B5 | 6.06 µg/mL
B6 | 0.00285 µg/mL

These binders were tested against SARS-CoV-2 Omicron BA.2.75 spike pseudovirus in the same assay as above.
Experimental: as §1

Binder | pseudovirus neutralization IC50
B1 | 0.00348 µg/mL
B2 | > 10 µg/mL
B3 | > 10 µg/mL
B4 | > 10 µg/mL
B5 | > 10 µg/mL
B6 | 0.00309 µg/mL

What follows are binders tested against SARS-CoV-2 Omicron BA.5 spike pseudovirus in the same assay as above.
Experimental: as §1

Binder | pseudovirus neutralization IC50
B1 | 0.00289 µg/mL
B2 | 0.0512 µg/mL
B3 | 0.882 µg/mL
B4 | > 10 µg/mL
B5 | 8.14 µg/mL
B6 | 0.00268 µg/mL

What follows are binders tested against SARS-CoV-2 Omicron BQ.1.1 spike pseudovirus in the same assay as above.
Experimental: as §1

Binder | pseudovirus neutralization IC50
B1 | > 10 µg/mL
B2 | > 10 µg/mL
B3 | > 10 µg/mL
B4 | > 10 µg/mL
B5 | 4.41 µg/mL
B6 | 0.0274 µg/mL

Each binder was assayed against SARS-CoV-2 Omicron XBB spike pseudovirus in the same assay as above.
Experimental: as §1

Binder | pseudovirus neutralization IC50
B1 | > 10 µg/mL
B2 | > 10 µg/mL
B3 | > 10 µg/mL
B4 | > 10 µg/mL
B5 | > 10 µg/mL
B6 | > 10 µg/mL

These binders were tested against SARS-CoV-2 early D614G spike pseudovirus in the same assay as above.
Experimental: as §1

Binder | pseudovirus neutralization IC50
B1 | 0.00167 µg/mL
B2 | 0.0103 µg/mL
B3 | 0.016 µg/mL
B4 | > 10 µg/mL
B5 | 0.023 µg/mL
B6 | 0.00131 µg/mL
